Results deposited as PubChem BioAssay AID624099 (ICCB-Longwood, 2012).
Screen: 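Host factors E2 relies on to silence an HPV18 LCR reporter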 (primary screen). System: human C33A cervical carcinoma cells (HPV-negative) stably expressing BPV1 E2 and an HPV18 LCR luciferase reporter. Reagents: siRNA pool against human genes, 40 nM. Time to read-out: 72 h. Measurement: 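HPV18 LCR reporter light per well, converted to plate-wise z-scores that exclude control wells, and averaged over triplicate plates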. Scale: mean z-score and z-score: higher = stronger reporter signal, weaker E2 silencing. Rule for the call: 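Mean z ≥ 2 together with z ≥ 2 in two or more of the three replicates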.
Shown is one part, drawn at random, of about 21,000 reagents. 497 of all reagents (2.4%) were called active. 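Higher z means weaker E2 silencing; only reporter increases were scored, and knock-downs that hurt cell survival may mask genuine repressor factors.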 Unmarked entries are inactive. No sequences are given here.

target	mean z-score	z-score, replicate A	z-score, replicate B	z-score, replicate C
TXNDC15	1.8	2.42	1.58	1.41
BOLA1	0.98	1.42	0.89	0.61
LOC342970 (retired record)	0.27	0.41	0.14	0.26
HNRNPU	-0.07	0.08	-0.25	-0.02
SEMA6C	-0.08	-0.21	0.06	-0.1
SRSF6	-0.02	-0.01	-0.23	0.17
FBLIM1	1.18	1.42	0.93	1.19
EDNRB	-0.21	-0.08	-0.09	-0.47
CAMSAP1	0.76	1.03	0.87	0.39
RPS3A	-1.52	-1.38	-1.69	-1.49
RANBP2	0.31	0.2	0.52	0.2
MTR	-1.22	-1.14	-1.19	-1.34
PIK3IP1	1.77	2.1	1.61	1.6
LIMD2	-0.56	-0.98	-0.54	-0.14
MED22	-1.51	-1.35	-1.64	-1.55
MDGA1	1.42	1.29	1.59	1.39
LOC400751 (retired record)	0.15	0.34	0.51	-0.41
MINK1	-0.58	-0.59	-0.47	-0.68
NSD1	0.89	0.95	0.91	0.81
NYX	-0.62	-0.61	-0.73	-0.52
RPS3	-2.72	-2.52	-2.6	-3.04
ARHGAP30	0.37	0.19	0.61	0.31
ABHD16B	-1.17	-0.71	-1.28	-1.52
SLC25A11	-0.16	0.11	-0.2	-0.38
USP10	0.6	0.47	0.6	0.72
TMEM107	1.18	0.96	1.1	1.47
DYDC2	1.68	1.79	1.86	1.37
CNOT4	2.23 (active)	2.29	2.09	2.31
UQCRQ	-0.93	-0.8	-1.01	-0.99
DPY19L2	0.14	-0.37	0.53	0.27
ARHGAP27P1	0.3	0.52	0.51	-0.14
GLRA2	-0.02	-0.07	0.05	-0.04
CMAS	-1.92	-2	-2	-1.75
SACK1B	1	0.92	1.07	1.63
KLHDC7B	2.88 (active)	3	2.67	2.97
FTMT	-0.58	-0.23	-0.75	-0.76
NOTCH3	-0.5	-0.63	-0.46	-0.42
HNRNPA1P10	2.09 (active)	2	2.33	1.92
ZNF490	0.62	0.31	0.62	0.93
RING1	-0.85	-0.66	-1.1	-0.8
LOC387942 (retired record)	-0.58	-0.66	-0.47	-0.6
HOXA2	0.58	0.76	0.45	0.53
CPM	2.24 (active)	1.43	2.52	2.79
PPA1	0.07	-0.08	0.03	0.25
TSSK2	-0.4	-0.67	-0.63	0.09
KRT36	-0.33	-0.58	-0.16	-0.27
ATP2B4	1.33	1.43	1.2	1.36
FPGT	1.32	1.17	1.54	1.25
LINC02213	0.73	0.85	0.52	0.83
ARID3B	1.48	1.17	2.06	1.21
MAT2A	-0.75	-0.96	-0.7	-0.6
FER	-1.42	-0.8	-1.97	-1.49
S100A5	0.19	0.27	0.06	0.24
KCNC1	-0.81	-0.61	-0.77	-1.04
NFE2L3	-0.67	-0.63	-0.75	-0.64
AMZ2P1	0.54	0.5	0.98	0.14
COMMD1	-1.22	-0.85	-1.5	-1.31
LOC400047 (retired record)	0.31	0.21	0.43	0.29
SEPTIN7	-0.04	-0.03	-0.05	-0.04
KRTAP1-1	-0.15	-0.69	0.31	-0.06
MAGEB6B	0.24	0.48	0.37	-0.13
ZFAND5	0.68	0.77	0.6	0.66
LOC286080 (retired record)	-1.47	-0.73	-1.88	-1.8
RAB12	-1.29	-1.96	-1.11	-0.82
CLDN5	-0.18	-0.14	-0.23	-0.18
DLGAP4	0.24	0.27	0.04	0.42
NBN	1.17	1.32	0.77	1.42
KCNAB3	-0.22	-0.37	0	-0.29
TPD52L1	0.15	0.2	0.27	-0.02
MALRD1	-0.53	-0.2	-0.76	-0.62
DOCK5	1.58	1.4	2	1.33
GPR173	0.39	0.18	0.4	0.58
ASMT	-1.17	-0.86	-1.33	-1.31

Records above whose target name begins with D or d:
target	mean z-score	z-score, replicate A	z-score, replicate B	z-score, replicate C
DYDC2	1.68	1.79	1.86	1.37
DPY19L2	0.14	-0.37	0.53	0.27
DLGAP4	0.24	0.27	0.04	0.42
DOCK5	1.58	1.4	2	1.33
